We go through one substance from US20050080570A1, “Predicting probabilities of achieving a desired minimum trough level for an anti-infective agent” (priority 2003, published 2005).

The conditions of data set [1]: average value across the studies.
For data set [2] the following is noted: 100% human serum; fourth study; cited from earlier work.

Consider Amprenavir or fos-Amprenavir [APV], for which the “Protein-binding correction factor, Average” value in data set [1] is reported as 6.8. Further, in data set [2], the “Protein-binding correction factor, 100% HS” value is 10.5.
